Results of unrelated studies side by side (data: NIAID ChemDB).

Common to all: host cell toxicity; cell line: HeLa; read-out: CC50

An empty or dashed field is not shown. a–b is a range or a potency band. CCn is the concentration with n% toxicity to the cells. Conditions beyond the fields shown may differ between rows.

compound,read by,result
Cc1cccc(OCCNC(=O)c2ccccc2Cl)c1,-,>172.6 µM
CCCCCCCCCCCCCCCCOP(=O)([O-])OCCC[n+]1ccccc1,MTT,74.7 µM
C[C@@H](O)C1=C[C@@H](n2cnc3c(N)ncnc32)[C@H](O)[C@@H]1O,MTT / neutral red,12 µg/mL
CC(C)(C)CC(C)(C)c1ccc(OCCOP(=O)([O-])OCC[N+](C)(C)Cc2ccccc2)cc1,MTT,>100 µM
OC[C@H]1O[C@@H](n2cnc3cc(Cl)c(Cl)cc32)[C@H](O)[C@@H]1O,-,≥40 µg/mL
COc1cc(O)c2c(=O)cc(-c3ccc(OC)c(-c4c(O)cc(O)c5c(=O)cc(-c6ccc(O)cc6)oc45)c3)oc2c1,-,19 µg/mL
CN(C)[C@@H]1C(=O)C(C(N)=O)=C(O)[C@@]2(O)C(=O)C3=C(O)c4c(O)cccc4[C@@](C)(O)[C@H]3[C@H](O)[C@@H]12,-,100 µM
CC(=O)OC1C=COC=C2CC34SSC5(CC6=COC=CC(OC(C)=O)C6N5C3=O)C(=O)N4C21,-,75 µg/mL
O=C(NS(=O)(=O)OC[C@H]1O[C@@H](n2ccc(=O)[nH]c2=O)[C@H](O)[C@@H]1O)O[C@H]1O[C@H](COC(=O)c2ccccc2)[C@@H](OC(=O)c2ccccc2)[C@H](OC(=O)c2ccccc2)[C@H]1OC(=O)c1ccccc1,-,>220 µM
C[C@@]12CC[C@]3(C1)C(CC2=O)C[C@@H](OC(=O)c1ccccc1)[C@H]1[C@](C)(C(=O)O)CCC[C@@]13C,-,0.9 µM
O=c1[nH]cnc2c1ncn2[C@H]1CC[C@@H](CO)O1,-,>200 µM
Cc1cccc(N2CCN(c3ccc(Br)nn3)CC2)c1,-,12.5–25 µg/mL
C[C@@]12CC[C@]3(C1)C(CC(=O)[C@H]1[C@](C)(C(=O)O)CCC[C@@]13C)CC2=O,-,199 µM
C#C[C@]1(CO)O[C@@H](n2cnc3c(=O)[nH]c(N)nc32)C[C@@H]1O,MTT,52 µM
CCCOC(=O)C(N)CCSC[C@H]1O[C@@H](n2ccc3c(N)ncnc32)[C@H](O)[C@@H]1O,-,100 µg/mL
CCCCCCCCCCCCCCCCOP(=O)([O-])OCC[N+](C)(C)Cc1ccccc1,MTT,55.7 µM
O=c1[nH]c(=O)n([C@@H]2O[C@H](CO)C[C@H]2O)cc1F,trypan blue,>500 µg/mL
N/C(=N/O)c1cn([C@@H]2O[C@H](CO)[C@@H](O)[C@@H]2O)c2ncnc(N)c12,-,175 µM
CC(=O)OC1C=COC=C2C[C@@]34NC(=S)S[C@]5(CC6=COC=CC(OC(C)=O)C6N5C3=O)C(=O)N4C21,-,>25 µg/mL
Cc1ccc(NCN2C(=O)c3ccccc3C2=O)cc1,-,159.2 µM
O=C1C2CC3=COC=CC(O)C3N2C(=O)C2=CC3=COC=CC(O)C3N12,-,3 µg/mL
Cc1cccc(OCCNC(=O)c2ccccc2)c1,-,>195.8 µM
S=c1[nH]nc(-c2ccc(Cl)cc2)s1,MTT,13.48 µg/mL
CCOC(=O)C(CCSC[C@H]1O[C@@H](n2ccc3c(N)ncnc32)[C@H](O)[C@@H]1O)NC(C)=O,-,>200 µg/mL
O=C(/C=C/c1ccc(O)c(O)c1)O[C@@H]1C[C@](OC(=O)/C=C/c2ccc(O)c(O)c2)(C(=O)O)C[C@@H](O)[C@H]1O,-,>400 µM
NC(=O)c1csc(C2OC(CO)C(O)C2O)c1,-,90 µM
O=C(O)CCCCCNc1ccc([N+](=O)[O-])c2nonc12,fluorescence,>50 µM
CC(C)S(=O)(=O)n1c(N)nc2ccc(/C(=N/O)c3ccccc3)cc21,-,6.25–12.5 µg/mL
Fc1ccc(-c2nc(SCCCCBr)n[nH]2)cc1,MTT,24.79 µg/mL
C#C[C@]1(CO)O[C@@H](n2cnc3c(=O)[nH]c(N)nc32)C[C@@H]1O,-,52 µM
CS/C(Nc1ccc(C(F)(F)F)cc1)=C(/C#N)S(=O)(=O)c1ccccc1,MTT / absorbance,23.4 µM
OC[C@H]1OC(O)C[C@@H](O)[C@@H]1O,-,5000 µM
Cc1cccc(OC2CCCN(C(=O)c3ccccc3Cl)C2)c1,-,113.7 µM
Clc1ccc(C2CCc3ccccc3O2)c(Cl)c1,-,12.5 µg/mL
CCN1C[C@]2(COC)[C@H](O)CC(OC)[C@]34C1[C@H](CC23OC)[C@]1(OC(C)=O)[C@H]2[C@@H](OC(=O)c3ccccc3)[C@](O)(C[C@H]24)[C@@H](OC)[C@@H]1O,-,25 µg/mL
Nc1ncnc2c1c(Br)cn2[C@@H]1O[C@H](CO)[C@@H](O)[C@H]1O,-,0.4 µg/mL
NC(=O)c1cn([C@@H]2O[C@H](CO)[C@@H](O)[C@@H]2O)c2ncnc(N)c12,-,15 µM
C#C[C@]1(CO)O[C@@H](n2cnc3c(N)ncnc32)C[C@@H]1O,-,>200 µM
COc1ccc2c(c1OC)C(=O)O[C@@H]2[C@H]1c2cc3c(cc2CCN1C)OCO3,-,10–20 µg/mL
C#C[C@]1(CO)O[C@@H](n2ccc(N)nc2=O)[C@@H](O)[C@@H]1O,MTT,>200 µM
O[C@H]1[C@@H](O)COC(n2cnc3cc(Cl)c(Cl)cc32)[C@@H]1O,-,>400 µg/mL
Clc1cccc(NCn2nnc3ccccc32)c1,-,<185.7 µM
CN(C)[C@@H]1C(=O)C(C(N)=O)=C(O)[C@@]2(O)C(=O)C3=C(O)c4c(O)ccc(Cl)c4[C@@](C)(O)C3C[C@@H]12,-,100 µM
Cc1cccc(OCCNC(=O)c2ccc3ccccc3c2O)c1,-,73.1 µM
N/C(=N/O)c1cn([C@H]2C[C@H](O)[C@@H](CO)O2)c2ncnc(N)c12,-,90 µM
C#Cc1c(C(N)=O)ncn1[C@@H]1O[C@H](CO)[C@@H](O)[C@H]1O,-,0.21 µg/mL
NC(=O)c1c[se]c(C2OC(CO)C(O)C2O)c1,-,6.4 µM
Nc1nccc2c1ncn2[C@@H]1C[C@H](CO)[C@@H](O)[C@H]1O,-,2 µg/mL
O=C(NCCOc1ccc2ccccc2c1)c1ccccc1O,-,>167.2 µM
O=C1C=CN([C@@H]2O[C@H](CO)[C@@H](O)[C@H]2O)C(=O)C1,trypan blue,>500 µg/mL
C[C@@]12CC[C@]3(C1)C(C[C@@H](O)[C@H]1[C@](C)(CO)CCC[C@@]13C)C[C@H]2O,-,290 µM
Nc1ncnc2c1ncn2[C@@H]1C=C(CO)[C@@H](O)[C@H]1O,trypan blue,20 µg/mL
CC(=O)OC1CN2CCC1CC2,-,300–400 µg/mL
Clc1cc2nc[nH]c2cc1Cl,-,≥40 µg/mL
N=C(N)c1cn([C@H]2C[C@H](O)[C@@H](CO)O2)c2ncnc(N)c12,-,14 µM
O=c1[nH]c(=O)c([C@@H]2O[C@H](CO)[C@@H](O)[C@H]2O)co1,-,100 µg/mL
CC(=O)OC[C@]1(C)CCC[C@@]2(C)[C@H]1[C@H](O)CC1C[C@@H](OC(C)=O)[C@]3(C)CC[C@]12C3,-,36.9 µM
CCCCCCCCCCCCCCCCOP(=O)([O-])OCC[n+]1ccccc1,MTT,52.1 µM
CS/C(Nc1ccccc1)=C(/C#N)S(=O)(=O)c1ccc(Cl)cc1,MTT / absorbance,>30 µM
Cc1cccc(OCCNC(=O)c2ccc(N)cc2Cl)c1,-,>164 µM
CCc1cccc(N/C(SC)=C(\C#N)S(=O)(=O)c2ccccc2)c1,MTT / absorbance,>30 µM
Clc1ccc(-c2nc(SCC3CC3)n[nH]2)cc1,MTT,5.8 µg/mL
CCOc1cc(O)c(C(=O)NCc2ccc(NC)cc2)c(OC)c1,-,≥25 µg/mL
S=c1nc(-c2ccco2)[nH][nH]1,MTT,>50 µg/mL
C#C[C@]1(CO)O[C@@H](n2cc(C)c(=O)[nH]c2=O)C[C@@H]1O,-,>200 µM
C[C@@H]1O[C@@H](O[C@H]2C[C@@H](O)[C@]3(CO)[C@H]4[C@H](O)C[C@]5(C)[C@@H](C6=CC(=O)OC6)CC[C@]5(O)[C@@H]4CC[C@]3(O)C2)[C@H](O)[C@H](O)[C@H]1O,-,<1 µg/mL
CC(C)c1ccc(OCCNC(=O)c2ccccc2Cl)cc1,-,105.4 µM
CC(=O)OC[C@]1(C)CCC[C@@]2(C)[C@H]1[C@H](O)CC1C[C@H](OC(C)=O)[C@]3(C)CC[C@]12C3,-,180 µM
O=[N+]([O-])c1ccc(-c2nc(SCC3CC3)n[nH]2)cc1,MTT,8.5 µg/mL
CCCOC(=O)C(CCSC[C@H]1O[C@@H](n2ccc3c(N)ncnc32)[C@H](O)[C@@H]1O)NC(=O)COC,-,>200 µg/mL
N[C@H]1C(C=O)=CC=C[C@@H]1O,-,36 µM
CCOc1cc(O)c(C(=O)NCc2ccc(OC)cc2)c(OC)c1,-,≥25 µg/mL
O=[N+]([O-])c1ccc(-c2n[nH]c(=S)s2)cc1,MTT,65.3 µg/mL
CC1OC(n2ccc(NC(=O)c3ccc(NC(=O)C(C)(N)CO)cc3)nc2=O)CCC1OC1OC(C)C(N(C)C)C(O)C1O,-,78 µM
CC(=O)OC1C=COC=C2C[C@@]34SSSS[C@]5(CC6=COC=CC(OC(C)=O)C6N5C3=O)C(=O)N4C21,-,115 µg/mL

For reference, 5 entries again:

{"compound": "CC(=O)OC1C=COC=C2C[C@@]34NC(=S)S[C@]5(CC6=COC=CC(OC(C)=O)C6N5C3=O)C(=O)N4C21", "result": ">25 µg/mL"}
{"compound": "C#Cc1c(C(N)=O)ncn1[C@@H]1O[C@H](CO)[C@@H](O)[C@H]1O", "result": "0.21 µg/mL"}
{"compound": "N/C(=N/O)c1cn([C@H]2C[C@H](O)[C@@H](CO)O2)c2ncnc(N)c12", "result": "90 µM"}
{"compound": "Clc1cccc(NCn2nnc3ccccc32)c1", "result": "<185.7 µM"}
{"compound": "Clc1ccc(C2CCc3ccccc3O2)c(Cl)c1", "result": "12.5 µg/mL"}